Results of unrelated studies side by side (data: NIAID ChemDB).

Shared fields: tests in culture; organism: HIV-1; measure: EC50

An empty or dashed field is not shown. ECn: concentration that inhibits the pathogen or its effect by n%. Lines come from different laboratories, so protocols vary.

| compound | strain | mutations | cell line | method | setting | value |
|---|---|---|---|---|---|---|
| Cc1ccc(-c2nc3ccc(CNCC[C@@]45CC[C@]6(C)[C@H](CC[C@@H]7[C@@]8(C)CC[C@H](OC(=O)[C@H]9C[C@@H](C(=O)O)C9(C)C)C(C)(C)[C@@H]8CC[C@]76C)C4=C(C(C)C)C(=O)C5)cc3[nH]2)cn1 | 92HT599 | - | MT-2 | p24 / ELISA | - | <1 µM |
| Cc1occc1C(=S)Nc1ccc(Cl)c(C(=O)OC(C)C)c1 | NL4-3 | RT-K101E | CEM + CEM-SS | cytopathic effect / XTT | - | 0.7 µM |
| COc1cc(O)c2c(c1O)C1O[C@]3(C)C[C@H]1[C@@H](CO3)C2=O | - | - | SupT1 | luciferase | pseudotyped | 11.6 µg/mL |
| Cc1occc1C(=S)Nc1ccc(Cl)c(C(=O)OCC(F)(F)F)c1 | RF | - | CEM + CEM-SS | cytopathic effect / XTT | - | 0.011 µM |
| CC(=O)Nc1ccc(F)c2c(C(=O)C(=O)N3CCN(C(=O)c4ccccc4)CC3)c[nH]c12 | - | - | HeLa | luciferase / reporter gene | - | <1 µM |
| CC(C)C1=C2[C@H]3CC[C@@H]4[C@@]5(C)CC[C@H](OC(=O)[C@H]6C[C@@H](C(=O)O)C6(C)C)C(C)(C)[C@@H]5CC[C@@]4(C)[C@]3(C)CC[C@@]2(CC(=O)NCC(C)(C)NC(=O)c2ccc(Cl)cc2OCCN2CCCC2)CC1=O | 92HT599 | - | MT-2 | p24 / ELISA | - | <1 µM |
| Cc1occc1C(=S)Nc1ccc(Cl)c(/C=N/OC(C)(C)C)c1 | 4xAZT/L100I(RT-D67N K70R T215Y K219Q L100I) | RT-D67N K70R L100I T215Y K219Q | CEM + CEM-SS | cytopathic effect / XTT | - | 1 µM |
| C[C@@H]1CN(C(=O)c2ccccc2)CCN1C(=O)C(=O)c1c[nH]c2c(NC(=O)Nc3cc(C(=O)O)cc(C(=O)O)c3)cccc12 | - | - | HeLa | luciferase / reporter gene | - | <1 µM |
| CC(C)C1=C2[C@H]3CC[C@@H]4[C@@]5(C)CC[C@H](OC(=O)[C@H]6C[C@@H](C(=O)O)C6(C)C)C(C)(C)[C@@H]5CC[C@@]4(C)[C@]3(C)CC[C@@]2(CC(=O)N(CCN(C)C)Cc2ccncn2)CC1=O | 92HT599 | - | MT-2 | p24 / ELISA | - | <1 µM |
| C=CCO/N=C/c1cc(NC(=S)c2ccoc2C)ccc1Cl | NL4-3 | - | CEM + CEM-SS | cytopathic effect / XTT | - | 0.007 µM |
| CC(=O)NC1C(O)OC(CO)C(O)C1OC1OC(C(=O)[O-])C(OC2OC(CO)C(O)C(OC3OC(C(=O)[O-])C(O)C(O)C3O)C2NC(C)=O)C(O)C1O.[Na+].[Na+] | IIIB | - | SUP-T1 + H9 + Sup-T1 | syncytia | - | >1000 µg/mL |
| Nc1ncnc2c1ncn2C1CC(CO)C1 | IIIB | - | ATH8 | cytopathic effect | - | >100 µM |
| CC(C)C1=C2[C@H]3CC[C@@H]4[C@@]5(C)CC[C@H](OC(=O)[C@H]6C[C@@H](C(=O)O)C6(C)C)C(C)(C)[C@@H]5CC[C@@]4(C)[C@]3(C)CC[C@@]2(CCNCC(C)(C)NC(=O)CN2CCS(=O)(=O)CC2)CC1=O | 92HT599 | - | MT-2 | p24 / ELISA | - | <1 µM |
| CC(=O)Nc1cccc2c(C(=O)C(=O)N3CCN(C(=O)c4ccccc4)C[C@H]3C)c[nH]c12 | - | - | HeLa | luciferase / reporter gene | - | <1 µM |
| O=C(O)c1cn(C2CC2)c2c(OC(F)F)c(N3CCN(Cc4ccccc4)CC3)c(F)cc2c1=O | IIIB | - | MOLT-4/HIV-1(IIIB) + MOLT-4 | p24 | - | >23 µM |
| CC(=O)Nc1ccc(F)c2c(C(=O)C(=O)N3CCC(=C(C#N)c4ccccn4)CC3)c[nH]c12 | - | - | HeLa | luciferase / reporter gene | - | <1 µM |
| COc1cc(O)c2c(c1O)C(=O)c1cc(C)ncc1C2=O | - | - | SupT1 | luciferase | pseudotyped | 9.4 µg/mL |
| CC(C)C1=C2[C@H]3CC[C@@H]4[C@@]5(C)CC[C@H](OC(=O)[C@H]6C[C@@H](C(=O)O)C6(C)C)C(C)(C)[C@@H]5CC[C@@]4(C)[C@]3(C)CC[C@@]2(CC(=O)NCC(C)(C)NC(=O)c2ccc(C(F)(F)F)cc2)CC1=O | 92HT599 | - | MT-2 | p24 / ELISA | - | <1 µM |
| NC(=O)CCNC(=O)c1ccccc1SCc1ccc([N+](=O)[O-])o1 | - | - | Macrophage | XTT | - | 1.61 µM |
| CC(C)C1=C2[C@H]3CC[C@@H]4[C@@]5(C)CC[C@H](OC(=O)[C@H]6C[C@@H](C(=O)O)C6(C)C)C(C)(C)[C@@H]5CC[C@@]4(C)[C@]3(C)CC[C@@]2(CCNCC2(N)CCC2)CC1=O | 92HT599 | - | MT-2 | p24 / ELISA | - | <1 µM |
| COC1=CC(=O)c2c(O)c(C)c(CC(C)=O)c(O)c2C1=O | - | - | SupT1 | luciferase | pseudotyped | 1.6 µg/mL |
| CNC(C(=O)Nc1cccc2c(C(=O)C(=O)N3CCN(C(=O)c4ccccc4)C[C@H]3C)c[nH]c12)C(O)C(=O)O | - | - | HeLa | luciferase / reporter gene | - | <1 µM |
| Cc1occc1C(=S)Nc1ccc(Cl)c(C(=O)OCC(C)C)c1 | IIIB | - | CEM + CEM-SS | cytopathic effect / XTT | - | 0.07 µM |
| CC(=O)NC1[C@H](COC[C@@H]2C(CO)O[C@@H](COC[C@@H]3C(CO)O[C@@H](O)C(NC(C)=O)[C@@H]3O)C(NC(C)=O)[C@@H]2O)OC(CO)[C@@H](O)[C@H]1O | IIIB | - | SUP-T1 + H9 + Sup-T1 | syncytia | - | >1000 µg/mL |
| CC(C)C1=C2[C@H]3CC[C@@H]4[C@@]5(C)CC[C@H](OC(=O)[C@H]6C[C@@H](C(=O)O)C6(C)C)C(C)(C)[C@@H]5CC[C@@]4(C)[C@]3(C)CC[C@@]2([C@@H](O)CN(CCN(C)C)C(=O)c2cncnc2)CC1=O | 92HT599 | - | MT-2 | p24 / ELISA | - | <1 µM |
| O=C(O)C(O)c1ccccc1 | BaL | - | Macrophage | p24 | - | <100 µg/mL |
| Cc1cn(-c2ccc(CNC(=O)C[C@@]34CC[C@]5(C)[C@H](CC[C@@H]6[C@@]7(C)CC[C@H](OC(=O)[C@H]8C[C@@H](C(=O)O)C8(C)C)C(C)(C)[C@@H]7CC[C@]65C)C3=C(C(C)C)C(=O)C4)cc2)cn1 | 92HT599 | - | MT-2 | p24 / ELISA | - | <1 µM |
| COS(=O)(=O)c1ccc(NC(=O)Nc2cccc3c(C(=O)C(=O)N4CCC(=C(C#N)c5ccccc5)CC4)c[nH]c23)cc1 | - | - | HeLa | luciferase / reporter gene | - | <1 µM |
| Cc1cncc(C(=O)NC(C)(C)CNC(=O)C[C@@]23CC[C@]4(C)[C@H](CC[C@@H]5[C@@]6(C)CC[C@H](OC(=O)[C@H]7C[C@@H](C(=O)O)C7(C)C)C(C)(C)[C@@H]6CC[C@]54C)C2=C(C(C)C)C(=O)C3)n1 | 92HT599 | - | MT-2 | p24 / ELISA | - | <1 µM |
| N[C@@H](CCC(=O)O)C(=O)N[C@@H](CCC(=O)O)C(=O)N[C@@H](CCC(=O)O)C(=O)O | IIIB | - | SUP-T1 + H9 + Sup-T1 | syncytia | - | >1000 µg/mL |

The last 3 rows once more:

compound	strain	mutations	cell line	method	setting	value
COS(=O)(=O)c1ccc(NC(=O)Nc2cccc3c(C(=O)C(=O)N4CCC(=C(C#N)c5ccccc5)CC4)c[nH]c23)cc1	-	-	HeLa	luciferase / reporter gene	-	<1 µM
Cc1cncc(C(=O)NC(C)(C)CNC(=O)C[C@@]23CC[C@]4(C)[C@H](CC[C@@H]5[C@@]6(C)CC[C@H](OC(=O)[C@H]7C[C@@H](C(=O)O)C7(C)C)C(C)(C)[C@@H]6CC[C@]54C)C2=C(C(C)C)C(=O)C3)n1	92HT599	-	MT-2	p24 / ELISA	-	<1 µM
N[C@@H](CCC(=O)O)C(=O)N[C@@H](CCC(=O)O)C(=O)N[C@@H](CCC(=O)O)C(=O)O	IIIB	-	SUP-T1 + H9 + Sup-T1	syncytia	-	>1000 µg/mL